A mixed list of measured activities; the numbers were collected in NIAID ChemDB.

Shared fields: growth or infection tests; organism: HIV-1; measure: inhibition

Rows are shuffled and stem from different studies. An empty or dashed field is not shown. Inhibition is in % at the dose shown (toxicity tests: loss of growth or viability).

compound | strain or isolate | mutations | cell line | read by | setting | tested at | value
CCC[C@@]1(CCc2ccccc2)CC(O)=C([C@H](CC)c2cccc(NS(=O)(=O)c3ccc(C(F)(F)F)cn3)c2)C(=O)O1 | Isolate N. Amer 6 |  | PBMC | p24 |  | 0.12 µM | 90%
COc1cc(O)c2c(c1)C(=O)c1c(cc3c(c1O)-c1c(cc(C)c(C(=O)N[C@H](C)C(=O)O)c1O)[C@H](O[C@@H]1O[C@H](C)[C@H](O)[C@H](O[C@@H]4OC[C@@H](OS(=O)(=O)O)[C@H](O)[C@H]4O)[C@H]1O)[C@H]3O)C2=O | IIIB |  | MT-4 | antigen |  | 30 µg/mL | 47%
Nc1ccn([C@H]2CC[C@@H](CO)O2)c(=O)n1 | LAV-1 |  | U-937 | virus yield |  | 0.001 µM | >100%
CC(=O)[C@H]1CC[C@H]2[C@@H]3CCC4=CC(=O)CC[C@]4(C)[C@H]3CC[C@]12C | LTR-CAT |  | U-937 | p24 |  | 0.1 µM | 37.6%
O=C(O)P(=O)(O)O | IIIB |  | H9 | p24 / antigen | 4 d | 30 µM | 0%
O=C1N(Cc2ccc(CO)cc2)[C@H](Cc2ccccc2)[C@H](O)[C@@H](O)[C@@H](Cc2ccccc2)N1Cc1ccc(CO)cc1 | Clinical isolate D1 |  | PBMC | p24 |  | 0.25 µM | 90%
CC(C)[C@H](NC(=O)c1ccc2ccccc2n1)C(=O)N[C@@H](Cc1ccccc1)[C@H](O)CN1CC[C@@H](OCc2ccncc2)C[C@H]1C(=O)NC(C)(C)C | AZT-resistant |  | C8166 | p24 |  | 0.075 µM | 90%
C/C=C(\C)C(=O)O[C@@H]1[C@@H](OC(C)=O)[C@H]2[C@@H](CC[C@H]3C[C@@H](O[C@H]4C[C@@H](OC)[C@H](O[C@@H]5OC(C)[C@@H](O[C@@H]6OC(CO)[C@@H](O)[C@H](O)C6O)[C@H](OC)C5O)C(C)O4)CC[C@@]32C)[C@@]2(O)CC[C@H](C(C)=O)[C@@]12C |  |  | SupT1 | luciferase | pseudotyped | 30 µM | 14.12%
[B-]P(=O)([O-])CC[C@@H]1C=C[C@H](n2cc(C)c(=O)[nH]c2=O)O1 | NL4.3 p24 antigen |  | MAGI | β-galactosidase |  | 400 µM | 0%
C/C=C(\C)C(=O)O[C@@H]1[C@@H](OC(=O)c2ccccc2)[C@H]2[C@@H](CC=C3C[C@@H](O[C@H]4C[C@@H](OC)[C@H](O[C@@H]5OC(C)[C@@H](O[C@@H]6OC(CO)[C@@H](O)[C@H](O)C6O)[C@H](OC)C5O)C(C)O4)CC[C@@]32C)[C@@]2(O)CC[C@H](C(C)=O)[C@@]12C |  |  | SupT1 | luciferase | pseudotyped | 30 µM | 20.06%
C[C@@H](Cn1cnc2c(N)ncnc21)OCP(=O)(O)O | BaL |  | Macrophage + Monocytes/macrophages | p24 / syncytia |  | 5 µM | 89%
COc1cc(O)c2c(c1)C(=O)c1c(cc3c(c1O)-c1c(cc(C)c(C(=O)N[C@H](C)C(=O)O)c1O)[C@H](O[C@@H]1O[C@H](C)[C@H](O)[C@H](O[C@@H]4OC[C@@H](O)[C@H](O)[C@H]4O)[C@H]1O)[C@H]3O)C2=O | IIIB |  | MOLT-4 | syncytia |  | 10 µg/mL | 100%
COc1ccc(CN[C@@H](C(=O)N[C@H](C(=O)NCc2nc3ccccc3[nH]2)C(C)C)[C@H](O)[C@H](Cc2ccccc2)NC(=O)[C@@H](NC(=O)OCc2ccccc2)C(C)(C)C)cc1 | SF162 |  | Monocytes + Monocyte | p24 | clinical isolate | 0.046 µM | 90%
Cc1cn([C@H]2C[C@H](N=[N+]=[N-])[C@@H](CO)O2)c(=O)[nH]c1=O | IIIB |  | U-937 | p24 / ELISA |  | 0.036 µg/mL | 90%
O=S(=O)(O)c1cc(N=C=S)ccc1CCc1ccc(N=C=S)cc1S(=O)(=O)O | RF |  | C8166 | p24 |  | 50 µg/mL | 41%
C/C=C(\C)C(=O)O[C@@H]1[C@@H](OC(=O)/C(C)=C/C)[C@]2(C)[C@@H](C(C)=O)CC[C@@]23O[C@]32CC=C3C[C@@H](O[C@H]4C[C@@H](OC)C(O[C@@H]5OC(C)C(O[C@@H]6OC(CO)C(O[C@@H]7OC(CO)C(O)[C@H](O)C7O)[C@H](O)C6O)[C@H](OC)C5O)C(C)O4)CC[C@]3(C)[C@@H]12 |  |  | SupT1 | luciferase | pseudotyped | 30 µM | 20.9%
Cc1ccnc2c1NC(=O)c1cccnc1N2C1CC1 | LAV-1 |  | HT4 + HT4-6C | syncytia |  | 0.316 µM | 84%
CCN1c2ncccc2-c2ncc(C)n2-c2ccc(OC)nc21 |  |  | C8166 | syncytia | 7 d | 0.01 µM | 100%
COc1cc(O)c2c(c1)C(=O)c1c(cc3c(c1O)-c1c(cc(C)c(C(=O)N[C@H](C)C(=O)O)c1O)[C@H](O[C@@H]1O[C@H](C)[C@H](N)[C@H](O[C@@H]4OC[C@@H](O)[C@H](O)[C@@H]4O)[C@H]1O)[C@H]3O)C2=O | IIIB |  | MT-4 | antigen |  | 10 µg/mL | 99%
Oc1ccc(/C=C/c2cc(O)cc(O)c2)cc1 | EJC-X1 |  | PBMC | p24 | clinical isolate | 10 µM | 35%
Cc1cn([C@H]2C[C@H](N=[N+]=[N-])[C@@H](COP(=O)(O)OC[C@H]3OC(O)[C@@H](O)[C@@H](O)[C@@H]3O)O2)c(=O)[nH]c1=O | LAV-Bru |  | CEM | RT activity | 7 d | 5 µM | 93%
CN=C1CN=C(c2ccc[nH]2)c2cc(Cl)ccc2N1 | LAV-1 |  | HT4 + HT4-6C | syncytia |  | 3.16 µM | 95%
c1cc(CN2CCCNCCNCCCNCC2)ccc1CN1CCCNCCNCCCNCC1 | SW7 CLADE C X4 |  | PBMC | p24 |  | 0.5 µM | 100%
COC(=O)[C@@H](C)NC(=O)c1c(C)cc2c(c1O)-c1c(cc3c(c1O)C(=O)c1cc(OC)cc(O)c1C3=O)[C@H](O)[C@H]2O[C@@H]1O[C@H](C)[C@H](O)[C@H](O[C@@H]2OC[C@@H](O)[C@H](O)[C@H]2O)[C@H]1O | IIIB |  | MT-4 | antigen |  | 10 µg/mL | <10%
Cc1cn([C@H]2C=C[C@@H](CO)O2)c(=O)n(N)c1=O | BRU |  | CEM-C113 + CEM/C113 | cytopathic effect / MTT |  | 1 µM | 40%
CC(C)Nc1cccnc1N1CCN(C(=O)c2cc3ccccc3[nH]2)CC1 | Seropositive clinical isolate C |  | PBMC | MTT |  | 1 µM | 100%
C/C=C(\C)C(=O)O[C@H]1[C@H]2[C@@H](CC[C@H]3C[C@@H](O[C@H]4C[C@@H](OC)[C@H](O[C@@H]5OC(C)[C@@H](O[C@@H]6OC(CO)[C@@H](O[C@@H]7OC(CO)[C@@H](O)[C@H](O)C7O)[C@H](O)C6O)[C@H](OC)C5O)C(C)O4)CC[C@@]32C)[C@@]2(O)CC[C@H](C(C)=O)[C@@]2(C)[C@@H]1OC(=O)/C(C)=C/C |  |  | SupT1 | luciferase | pseudotyped | 30 µM | 33.81%
CCC(C)[C@H](NC(=O)[C@H](C(C)C)[C@@H](O)[C@H](O)[C@H](CC1CCCCC1)NC(=O)c1ccccc1SCCCCC[C@@H]1SC[C@@H]2NC(=O)NC21)C(=O)NCc1ccccn1 | D34 |  | PBMC |  |  | 0.01 µM | 10%
COC(=O)[C@@H]1C2CCC(C[C@@H]1OC(=O)c1ccccc1)N2C | IIIB |  | SupT1 + Sup-T1 | p24 |  | 25 µg/mL | <0%
CC(=O)O[C@H]1C[C@@]2(C)[C@@H](C[C@@H](O)[C@H]3[C@@]4(C)CC[C@@H](O)[C@@H](C)[C@@H]4CC[C@@]32C)/C1=C(\CCC=C(C)C)C(=O)O | H9RF |  | C8166 | syncytia |  | 100 µg/mL | 100%
Nc1ncnc2c1ncn2[C@H]1CC[C@@H](CO)O1 | HXBc2 |  | C8166 | RT activity |  | 20 µM | 75%
CCN1c2ncccc2-c2nccn2-c2ccc(OC)nc21 |  |  | C8166 | syncytia | 7 d | 0.1 µM | 100%
CC(C)(O)c1cccc(CN2C(=O)N(Cc3cccc(C(C)(C)O)c3)[C@H](Cc3ccccc3)[C@H](O)[C@@H](O)[C@H]2Cc2ccccc2)c1 | HXB2 | PR-184V | MT-2/MT-4 + MT-2 | p24 |  | 0.0722 µM | 90%
CC(C)=CCc1c(O)c(C(=O)C(C)C)c(O)c2c(-c3ccccc3)cc(=O)oc12 | NL4-3 Recombinant |  | Jurkat cells | luciferase |  | 1.25 µM | 40%
C/C=C(\C)C(=O)O[C@H]1[C@H]2[C@@H](CC[C@H]3C[C@@H](O[C@H]4C[C@@H](OC)[C@H](O[C@@H]5OC(C)[C@@H](O[C@@H]6OC(CO)[C@@H](O)[C@H](O)C6O)[C@H](OC)C5O)C(C)O4)CC[C@@]32C)[C@@]2(O)CC[C@H](C(C)=O)[C@@]2(C)[C@@H]1OC(=O)/C(C)=C/C |  |  | SupT1 | luciferase | pseudotyped | 30 µM | 24.78%
CCC(C)[C@H](NC(=O)[C@H](C(C)C)[C@@H](O)[C@H](O)[C@H](CC1CCCCC1)NC(=O)[C@@H](NC(=O)CCCCC1SC[C@@H]2NC(=O)NC12)C(C)C)C(=O)NCc1ccccn1 | D34 |  | PBMC |  |  | 0.1 µM | 69%
C/C=C(\C)C(=O)O[C@@H]1[C@@H](OC(=O)c2ccccc2)[C@]2(C)[C@@H](C(C)=O)CC[C@@]23O[C@]32CC[C@H]3C[C@@H](O[C@H]4C[C@@H](OC)C(O[C@@H]5OC(C)C(O[C@@H]6OC(CO)C(O)[C@H](O)C6O)[C@H](OC)C5O)C(C)O4)CC[C@]3(C)[C@@H]12 |  |  | SupT1 | luciferase | pseudotyped | 30 µM | 8.26%
C[C@H](Cn1cnc2c(N)ncnc21)OCP(=O)(O)O | BaL |  | Macrophage + Monocytes/macrophages | p24 |  | 0.005 µM | 17%
C/C=C(\C)C(=O)O[C@@H]1[C@@H](OC(=O)c2ccccc2)[C@H]2[C@@H](CC[C@H]3C[C@@H](O[C@H]4C[C@@H](OC)[C@H](O[C@@H]5OC(C)[C@@H](O[C@@H]6OC(CO)[C@@H](O)[C@H](O)C6O)[C@H](OC)C5O)C(C)O4)CC[C@@]32C)[C@@]2(O)CC[C@H](C(C)=O)[C@@]12C |  |  | SupT1 | luciferase | pseudotyped | 30 µM | 15.63%
C/C(=C(/CCO)SS/C(CCO)=C(\C)N(C=O)Cc1cnc(C)nc1N)N(C=O)Cc1cnc(C)nc1N | IIIB |  | MOLT-4/HIV-1(IIIB) + MOLT-4 | p24 |  | 500 µM | 97%
Cc1cn([C@H]2C[C@H](N=[N+]=[N-])[C@@H](COP(=O)(O)OC[C@H]3OC(O)[C@H](O)[C@@H](O)[C@@H]3O)O2)c(=O)[nH]c1=O | LAV-Bru |  | PBL | RT activity | 7 d | 25 µM | 96%
COC(=O)CNC(=O)[C@H](CS)NC(=O)CC[C@H](N)C(=O)O | LAV |  | U1 (HIV-1 LAV PMA stimulated) + U1 | RT activity |  | 1000 µM | 23%
C/C=C(\C)C(=O)O[C@@H]1[C@@H](OC(=O)c2ccccc2)[C@@H]2[C@@]3(C)CC[C@H](O[C@H]4C[C@@H](OC)C(O[C@@H]5OC(C)C(O[C@@H]6OC(CO)C(O[C@@H]7OC(CO)C(O)[C@H](O)C7O)[C@H](O)C6O)[C@H](OC)C5O)C(C)O4)C[C@@H]3CC[C@@]2(O)[C@@]2(O)CC[C@H](C(C)=O)[C@@]12C |  |  | SupT1 | luciferase | pseudotyped | 30 µM | 31.36%
Cc1ccnc2c1NC(=O)c1cccnc1N2C1CC1 | BRU |  | HT4 + HT4-6C | plaque count |  | 0.71 µM | 95%

3 of the rows above, restated:

compound,strain or isolate,mutations,cell line,read by,setting,tested at,value
CC(C)=CCc1c(O)c(C(=O)C(C)C)c(O)c2c(-c3ccccc3)cc(=O)oc12,NL4-3 Recombinant,,Jurkat cells,luciferase,,1.25 µM,40%
CCC(C)[C@H](NC(=O)[C@H](C(C)C)[C@@H](O)[C@H](O)[C@H](CC1CCCCC1)NC(=O)[C@@H](NC(=O)CCCCC1SC[C@@H]2NC(=O)NC12)C(C)C)C(=O)NCc1ccccn1,D34,,PBMC,,,0.1 µM,69%
C[C@@H](Cn1cnc2c(N)ncnc21)OCP(=O)(O)O,BaL,,Macrophage + Monocytes/macrophages,p24 / syncytia,,5 µM,89%